# Results published in publication PMC4509764.
# Construct, isoform or probe ends are uncertain for at least one entry. Protein sequences can lack the tags named with them.
# What was measured:
# [1] = biological target: T1, NanR (Clostridium perfringens strain 13) (UniProt P26833); experiment: competition with a labelled probe; conditions: 20 mM HEPES pH 7.6, 1 mM EDTA, 10 mM ([…], room temperature 20 min, recombinant protein, protein details: C-terminal His6 (pET24a), label: digoxigenin-11-ddUTP end label, probe letters rebuilt from the primers and the genome
# T1 sequence (looked up, limits assumed): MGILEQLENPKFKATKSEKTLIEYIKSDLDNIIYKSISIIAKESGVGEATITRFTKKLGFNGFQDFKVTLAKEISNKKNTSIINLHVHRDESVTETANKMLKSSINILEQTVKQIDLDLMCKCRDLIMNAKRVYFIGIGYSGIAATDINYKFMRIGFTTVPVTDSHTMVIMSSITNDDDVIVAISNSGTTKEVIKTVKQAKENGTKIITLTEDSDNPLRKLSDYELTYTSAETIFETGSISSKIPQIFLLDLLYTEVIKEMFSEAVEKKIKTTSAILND
# [2] = biological target: T1, NanR (Clostridium perfringens strain 13); experiment: EMSA; conditions: 20 mM HEPES pH 7.6, 1 mM EDTA, 10 mM ([…], room temperature 20 min, recombinant protein, protein details: C-terminal His6 (pET24a), label: digoxigenin-11-ddUTP end label, probe letters rebuilt from the primers and the genome
sequence,measurement,setting,value
AGTTAAAAGCAATTAAAAAAACATCTTGAAGTTTTAAGAAAATTATTTTCAATAAATTTTATTTGCGAAAATAATTTTCTTTTTATTTAGAGTTAAGAATTATTTTATTGGTTTAACTACAAGAATACTTGTTTGAATAGGAGGAAAGTCAGATAACAAGTATTTTGAAATAAAATTTAGATATAAATAATTAAAGAGTAGTAAGAAAGAATAAGAAAACTTTATAGAAAAACTTACCATAAAAATATCTTTATTGTATTGAAATTTCTTTAGAAAAGGATTACAATGTTAAATATAAGAAAAATATTTTCAAATTATTCTTATTTTGAAAATACTTTTCATAAAAATGAAATATTTTAGTATTCAAATTTTAATCGTTGCATTTCAAGAAGTATATTCAT (double strand) [nanI promoter probe],binding result,[1],binds
same,binding result,[2],binds
